The results in this text go back to patent publication US20170073375A1.

The target in experiment [1] is Hemagglutinin (HA) of A/Adachi/2/1957 H2N2 (Influenza A virus A/Adachi/2/1957 (H2N2)).
For experiment [2], the target named is Hemagglutinin (HA) of A/Vietnam/1203/2004 H5N1 (Influenza A virus A/Vietnam/1203/2004 (H5N1)).

B1: HB36.5 (designed binder)
chain: MSNAMDGQQLNRLLLEWIGAWDPFGLGKDAYDYEAAEVLKAVYETESAFDLAMRIHWIYNFAFKRQIPFAHAQKLARRLLELKQAASSPLP
For the molecule B1, the dissociation constant Kd was 712 nM in experiment [1] and 225 nM in experiment [2].
